A mixed list of measured activities; the numbers were collected in NIAID ChemDB.

All rows: whole-cell or culture tests; species: Hepatitis C virus; endpoint: EC50

An empty or dashed field is not shown.

compound,strain,read by,setting,result
CCC[C@]1(CC(=O)O)OCCc2c1[nH]c1c(C)ccc(C#N)c21,C316Y,replicon,-,10.8 µM
Cn1c(-c2ccccn2)c(C2CCCCC2)c2ccc(C(=O)NC(C)(C)C(=O)Nc3ccc(NC(=O)C(N)=O)cc3)cc21,-,replicon,genotype 1b,0.18 µM
NC(=O)c1ncn([C@@H]2O[C@H](CO)[C@@H](O)[C@H]2O)n1,-,luciferase,-,3 µM
C[C@@]1(O)[C@H](O)[C@@H](CO)O[C@H]1n1cnc2c(=O)[nH]c(N)nc21,-,-,-,3.5 µM
N#Cc1cn([C@@H]2O[C@H](CO)[C@@H](O)[C@H]2O)c2ncnc(NCc3ccccc3)c12,-,replicon,-,5 µM
COc1ccc([C@@H]2Oc3ccc([C@H]4Oc5cc(O)cc(O)c5C(=O)[C@@H]4O)cc3O[C@H]2CO)cc1O,1b,-,-,>40 µM
Cn1c(-c2ccccn2)c(C2CCCCC2)c2ccc(C(=O)N[C@@]3(C(=O)Nc4ccc(-c5cncnc5)cc4)CCNC3)cc21,-,replicon,genotype 1b,0.172 µM
CN(C)c1ncnc2c1c(C(=N)N)cn2[C@@H]1O[C@H](CO)[C@@H](O)[C@H]1O,-,replicon,-,2.5 µM
O=C(CN[C@@H](CSCc1ccccc1)C(=O)Nc1ccc(C2SC(=Nc3cccc(F)c3)N(Cc3ccco3)C2=O)cc1)c1ccccc1,genotype 1,replicon,genotype 1b,>50 µM
Cn1c(C(=O)O)cc2cc(NC(=O)C(C)(C)NC(=O)c3ccc4c(C5CCCCC5)c(-c5ccccn5)n(C)c4c3)ccc21,-,replicon,genotype 1b,0.179 µM
O=C(CNCC(=O)c1ccccc1)Nc1ccc(C2SC(=Nc3cccc(F)c3)N(Cc3ccco3)C2=O)cc1,genotype 1,replicon,genotype 1b,5 µM
CN(C)c1ncnc2c1c(/C(N)=N/O)cn2[C@@H]1O[C@H](CO)[C@@H](O)[C@H]1O,-,replicon,-,9 µM
C=CC(=O)NCC(=O)N1C[C@H](Oc2nccc3ccc(Br)cc23)C[C@H]1C(=O)N[C@]1(C(=O)NS(=O)(=O)C2CC2)C[C@H]1C=C,1b D168A,luciferase,-,>3 µM
COc1ccc([C@H]2Oc3ccc([C@H]4Oc5cc(O)cc(O)c5C(=O)[C@@H]4O)cc3O[C@@H]2CO)cc1O,1b,-,-,14.6 µM
C[C@@]1(O)[C@H](O)[C@@H](CO)O[C@H]1c1c[nH]c2c(N)ncnc12,-,replicon,24 h,>100 µM
Cn1c(-c2ccccn2)c(C2CCCCC2)c2ccc(C(=O)N[C@@]3(C(=O)Nc4ccc(/C=C/C(=O)O)cc4)CCNC3)cc21,-,replicon,genotype 1b,0.154 µM
CNc1ncnc2c1c(/C(N)=N/O)cn2[C@@H]1O[C@H](CO)[C@@H](O)[C@H]1O,-,replicon,-,3.7 µM
CN1CCC(NC(=O)c2ccc3c(C4CCCCC4)c(-c4ccccn4)n(C)c3c2)(C(=O)Nc2ccc(/C=C/C(=O)O)cc2)CC1,-,replicon,genotype 1b,0.065 µM
N/C(=N\O)c1cn([C@@H]2O[C@H](CO)[C@@H](O)[C@H]2O)c2nc[nH]c(=O)c12,-,replicon,-,33 µM
Nc1nc2c(ncn2[C@@H]2O[C@H](CO)C[C@H]2O)c(=O)[nH]1,-,luciferase,-,>150 µM
C[C@@]1(O)[C@H](O)[C@@H](CO)O[C@H]1c1coc2c(N)ncnc12,-,replicon,24 h,22 µM
NC(=O)c1cn([C@@H]2O[C@H](CO)[C@@H](O)[C@H]2O)c2nc[nH]c(=O)c12,-,replicon,-,4 µM
Cn1c(-c2ccccn2)c(C2CCCCC2)c2ccc(C(=O)NC3(C(=O)Nc4ccc(/C=C/C(=O)O)cc4)CCC3)cc21,-,replicon,genotype 1b,0.047 µM

The last 2 rows once more:

compound,strain,read by,setting,result
NC(=O)c1cn([C@@H]2O[C@H](CO)[C@@H](O)[C@H]2O)c2nc[nH]c(=O)c12,-,replicon,-,4 µM
Cn1c(-c2ccccn2)c(C2CCCCC2)c2ccc(C(=O)NC3(C(=O)Nc4ccc(/C=C/C(=O)O)cc4)CCC3)cc21,-,replicon,genotype 1b,0.047 µM

ECn is the concentration giving n% inhibition of infection, replication or growth. Conditions beyond the fields shown may differ between rows.